Molecular target: EBOV GP (Mayinga variant U31033) on pseudotyped lentivirus particles (Ebola virus, Mayinga variant), Q05320
Experiment: cell-based or functional assay

B1: mAbA09 (S1-4-A09, parental IgG) (protein)
chain 1: QVQLQESGPGLVKPSETLSLTCVVSGGILSSFYWNWIRQPPGKGLEWIGNIYYSGSPNYNASFQSRVAISVDTSKNQISLNLKSVTAADTAMYYCVRASRAYLWGSYRPTALDLWGQGSLVTVSS
chain 2: SYELTQPPSVSVSPGQTATITCSGDKLGDKYTSWFQQRPGQSPLLVIYQDNKRPSGLPARFSGSNSGNTATLTISGTQAMDEADYLCQVWDSGAVFGGGTKLTVL
- neutralization of pseudotyped lentivirus particles (luciferase, HEK293T cells): 6.67e-08 mol/L

B2: mAb114 (parental IgG) (protein)
chain 1: EVQLVESGGGLIQPGGSLRLSCAASGFALRMYDMHWVRQTIDKRLEWVSAVGPSGDTYYADSVKGRFAVSRENAKNSLSLQMNSLTAGDTAIYYCVRSDRGVAGLFDSWGQGILVTVSSAS
chain 2: DIQMTQSPSSLSASVGDRITITCRASQAFDNYVAWYQQRPGKVPKLLISAASALHAGVPSRFSGSGSGTHFTLTISSLQPEDVATYYCQNYNSAPLTFGGGTKVEIKSSAS
- neutralization of pseudotyped lentivirus particles (luciferase, HEK293T cells): 6.67e-08 mol/L

Source: patent US20250333484A1
